Compound potency records, mixed from different reports. Data source: NIAID ChemDB in PubChem.

Common to all: whole-cell or culture tests; species: HIV-1; cells: MT-4; measure: EC50

ECn: concentration that inhibits the pathogen or its effect by n%. a–b is a range or a potency band. Rows are shuffled and stem from different studies. An empty or dashed field is not shown.

smiles,strain or isolate,changes,method,result
CC(C)n1c(=O)c(O)c2n(c1=O)C[C@@H]1CC[C@H](c3ccccc3)N1C2=O,-,-,p24,<10 µM
CCOCn1c(Cc2ccc(OC)c(OC)c2)c(CC)c(=O)[nH]c1=O,EFVR,K103R/V179D/P225H,MTT,>100 µM
O=C(NCc1ccc(F)cc1)c1nc2n(c(=O)c1O)CCNC2,-,-,p24,<50 µM
COc1cccc2c1nc(-c1ccccc1F)n2Cc1cc(F)cc(F)c1,IIIB,-,-,0.0083 µg/mL
COc1cccc(OC)c1C1SCC(=O)N1c1nccc(C)n1,IIIB,-,cytopathic effect,0.905 µM
[N-]=[N+]=N[C@@H]1C[C@@H](CO)S[C@H]1n1cnc2c(Cl)ncnc21,-,-,-,>100 µM
Nc1nc(=O)n(CCN2C(=O)CSC2COc2ccccc2)cc1F,-,-,cytopathic effect,1–10 µM
CCc1c(Cc2cc(C)cc(C)c2)n(COCCCc2ccccc2)c(=O)[nH]c1=O,IIIB,-,MTT,0.05 µM
Cc1cn([C@@H]2O[C@H](CO[Si](C)(C)C(C)(C)C)[C@@H](O)[C@H]2O[Si](C)(C)C(C)(C)C)c(=O)n(CCCCC(=O)O)c1=O,IIIB,-,cytopathic effect / trypan blue,≥10 µM
Cc1nc2ccccc2c(-c2cc(F)c3c(c2C)CCCO3)c1[C@H](OC(C)(C)C)C(=O)O,NL4-3,E92Q/G140S/Q148H,luminescence,0.022 µM
Cc1cn([C@@H]2S[C@@H](CO)C[C@@H]2N=[N+]=[N-])c(=O)[nH]c1=O,-,-,-,>100 µM
CN1CCn2c(nc(C(=O)NCc3ccc(F)cc3S(C)(=O)=O)c(O)c2=O)C1(C)C,-,-,p24,<1 µM
Cc1ccnc(N2C(=O)CSC2c2c(F)ccc(C)c2Cl)n1,IIIB,-,cytopathic effect,0.769 µM
CC1(C)c2nc(C(=O)NCc3ccc(F)cc3)c(O)c(=O)n2CCN1CC(=O)NCc1ccncc1,-,-,p24,<1 µM
Cc1cn([C@@H]2O[C@H](CO[Si](C)(C)C(C)(C)C)[C@@H](O)[C@H]2O[Si](C)(C)C(C)(C)C)c(=O)n(Cc2nn[nH]n2)c1=O,IIIB,-,cytopathic effect / trypan blue,>2 µM
Nc1ccn([C@H]2OC[C@@H](CO)[C@H]2O)c(=O)n1,-,-,-,>100 µM
Cc1cn([C@H]2S[C@H](CO)C[C@@H]2N=[N+]=[N-])c(=O)[nH]c1=O,-,-,-,>100 µM
CN(C)C(=O)C(=O)N(C)C1CN(S(C)(=O)=O)CCn2c1nc(C(=O)NCc1ccc(F)cc1)c(O)c2=O,-,-,p24,<1 µM
CNOC(=O)Cn1c(=O)c(C)cn([C@@H]2O[C@H](CO[Si](C)(C)C(C)(C)C)[C@@H](O[Si](C)(C)C(C)(C)C)[C@H]2O)c1=O,IIIB,-,cytopathic effect / trypan blue,>10 µM
CC(/C=C/C=C\C=C\C=C(/C)C(=O)NC(C)CO)=C\C(C)C(O)/C(C)=C/C(C)CCc1ccccc1,IIIB,-,cytopathic effect / thymidine uptake,<0.00102 µM
CC(C)n1c(=O)c(O)c2n(c1=O)C(CCn1ccnc1)CN(Cc1ccc(F)cc1)C2=O,-,-,p24,<10 µM
CCc1cc(=O)c2ccc3c(c2o1)[C@@H](OC(=O)C12CCC(C)(C(=O)O1)C2(C)C)[C@@H](OC(=O)C12CCC(C)(C(=O)O1)C2(C)C)C(C)(C)O3,NL4-3,RT-E138K,p24,>10 µM
Cc1cc(C)nc(N2C(=O)CSC2c2c(C(F)(F)F)ccc(Cl)c2F)c1,IIIB,-,cytopathic effect,5.88 µM
O=C1c2c(O)c(=O)n(CC3COCCN3)c(=O)n2CCN1Cc1ccc(F)cc1,-,-,p24,<10 µM
C#Cc1ccc(Nc2nccc(Oc3c(C)cc(-c4cn(CCc5cccs5)nn4)cc3C)n2)cc1,IIIB,L100I,MTT,>5.53 µM
CCc1c(Cc2ccc(C)cc2)n(COCC2CC2)c(=O)[nH]c1=O,N119,Y181C,MTT,>100 µM
CC(=O)CCC(=O)OCCOCn1c(C)nc(C(C)C)c1Sc1cc(C)cc(C)c1,IIIB,-,cytopathic effect / MTT,0.008 µg/mL
O=C1c2c(O)c(=O)n(CC3(N4CCOCC4)CCCC3)c(=O)n2CCN1Cc1ccc(F)cc1,-,-,p24,<10 µM
CCNC(=O)N1CCn2c(nc(C(=O)NCc3ccc(F)cc3)c(O)c2=O)C1(C)C,-,-,p24,<1 µM
O=C1c2c(O)c(=O)n(CC3CCCCC3)c(=S)n2CCN1Cc1ccc(F)cc1,-,-,p24,<10 µM
Nc1ccn([C@H]2CC[C@@H](CO)O2)c(=O)n1,RTMDR,RTMDR1,MTT,1.65 µM
CCc1c(Cc2ccc(OC)c(OC)c2)n(COCCCc2ccccc2)c(=O)[nH]c1=O,IIIB,-,MTT,>38 µM
COc1cccc(OC)c1C1SCC(=O)N1c1cccc(Br)n1,IIIB,-,cytopathic effect,0.045 µM
[N-]=[N+]=N[C@H]1C[C@H](CO)SC1n1cnc2c(N)ncnc21,-,-,-,>100 µM
CC1(C)CC=C(c2cn(-c3nccc(C(=O)NC4CCC(N5CC6CCC(C5)O6)CC4)n3)c3ccc(F)c([C@H](OC(C)(C)C)C(=O)O)c23)CC1,NL4-3,T124N/T125A,luminescence,0.0058 µM
C#Cc1ccc(Nc2nccc(Oc3c(C)cc(-c4cn(Cc5ccc(C(=O)OC)cc5)nn4)cc3C)n2)cc1,IIIB,F227L and V106A,MTT,≥9.22 µM
O=C1Nc2ccc(Cl)cc2[C@@](C#CC2CC2)(C(F)(F)F)O1,-,V106A/F227C,-,0.079 µM
Cc1ccnc(N2C(=O)CSC2c2c(F)cccc2F)n1,IIIB,-,cytopathic effect,0.39 µM
Cc1cn([C@@H]2O[C@H](COC(=O)C(C)(C)C)[C@@H](O)[C@H]2OC(=O)C(C)(C)C)c(=O)n(CC(=O)O)c1=O,IIIB,-,cytopathic effect / trypan blue,92 µM
COc1cccc(Cn2c(-c3ccccc3F)nc3c(OC)cccc32)c1,IIIB,-,-,0.032 µg/mL
CNc1ncnc2c1ncn2[C@@H]1S[C@@H](CO)C[C@@H]1N=[N+]=[N-],-,-,-,>100 µM
O=C1c2c(O)c(=O)n(C3CCSc4ccccc43)c(=O)n2CCN1Cc1ccc(F)cc1,-,-,p24,<10 µM
CCc1c(Cc2ccc(C)cc2)n(COCCCc2ccccc2)c(=O)[nH]c1=O,A17,K103N/Y181C,MTT,>43 µM
Cc1cn([C@@H]2S[C@H](CO)C[C@@H]2N=[N+]=[N-])c(=O)[nH]c1=O,-,-,-,>100 µM
COc1cccc2c1nc(-c1ccccc1F)n2Cc1cccc2ccccc12,IIIB,-,-,0.34 µg/mL
COC(=O)Cn1c(=O)c(C)cn([C@H]2C=C[C@@H](CO[Si](C)(C)C(C)(C)C)O2)c1=O,IIIB,-,cytopathic effect / trypan blue,>10 µM

For reference, 4 entries again:

{"smiles": "COc1cccc(OC)c1C1SCC(=O)N1c1cccc(Br)n1", "strain or isolate": "IIIB", "method": "cytopathic effect", "result": "0.045 µM"}
{"smiles": "CC(C)n1c(=O)c(O)c2n(c1=O)C(CCn1ccnc1)CN(Cc1ccc(F)cc1)C2=O", "method": "p24", "result": "<10 µM"}
{"smiles": "O=C1c2c(O)c(=O)n(C3CCSc4ccccc43)c(=O)n2CCN1Cc1ccc(F)cc1", "method": "p24", "result": "<10 µM"}
{"smiles": "CN1CCn2c(nc(C(=O)NCc3ccc(F)cc3S(C)(=O)=O)c(O)c2=O)C1(C)C", "method": "p24", "result": "<1 µM"}